Laboratory results: US11034736B2, “Anti-viral cnidarins” (priority 2014, dated 2021)

How the values were obtained:
CEM-SS cells = assay: Direct toxicity to uninfected CEM-SS control cells (XTT); assay type: cell-based, human; details: HIV-1RF EC50
Description: A 2,3-bis-[2-methoxy-4-nitro-5-sulfophenyl]-2H-tetrazolium-5-carboxanilide inner salt (XTT)-tetrazolium-based assay was used to determine the anti-HIV activity of CNID-1, -2 and -3 against a T-tropic laboratory strain (HIV-1RF) in T-lymphoblastic CEM-SS cells as described previously (Gulakowski et al., J. Virol. Methods, 33: 87-100 (1991)). CEM-SS cells were maintained in RPMI 1640 media without phenol red and supplemented with 10% fetal bovine serum (BioWhittaker), 2 mM L-glutamine (BioWhittaker), and 50 μg/ml gentamicin (BioWhittaker) (complete medium). Exponentially growing cells were washed and resuspended in complete medium, and a 50 μl aliquot containing 5×10^3 cells was added to individual wells of a 96-well round-bottom microtiter plate containing serial dilutions of the respective cnidarin protein in a volume of 100 μl of medium. Stock supernatants of HIV-1RF were diluted in complete medium to yield sufficient cytopathicity (80-90% cell kill in 6 days), and a 50 μl aliquot was added to appropriate wells. Plates were incubated for 6 days at 37° C. and then stained for cellular viability using XTT.
The HIV reverse transcriptase inhibitor 3′-Azido-3′-deoxythymidine (AZT) was used as a positive control. All assays were carried out in triplicate for all viruses and cells.

HIV-1US/92/727 = assay: Anti-HIV evaluation in PHA-stimulated human PBMCs, reverse transcriptase in supernatant; assay type: cell-based; details: HIV-1US/92/727, human PBMCs
Description: The cultures were incubated for 7 days at 37° C./5% CO2. Efficacy of the compounds was evaluated by measuring the amount of reverse transcriptase in the culture supernatant and toxicity was evaluated using XTT to measure cell viability. AZT was evaluated in parallel as an assay control.

Row | Molecule | Direct toxicity to uninfected control cells compared to EC50 (CEM-SS cells) | TI (therapeutic index) (HIV-1US/92/727)
1 | CNID-1: HIV-inhibitory protein from soft coral Synthecium sp.; 172 amino acids, 18,122 Da, SEQ ID NO: 1 (protein) GRATLGQLKTSTIPPVTFDVPFDGANIPQDVRFTIATVNGGKGALYNAELGESAGHTIVLESDGDHPIPGTFDPKSGRGLDYLPRGLVLFSSHNYVGNMKMYTEPDSDITADFPPGTPFGVSSAITGEGSAFQLNTGIDHTGEFEIIPPNTKRNLAGVFDNEIRSVSPTGGK | 1325 fold | >11.71
2 | CNID-3: HIV-inhibitory protein from soft coral Synthecium sp.; 170 amino acids, 17,963 Da, SEQ ID NO: 3 (protein) GKSAYPGQITSDVPFVTFDVPFDGVNIPQDVRFTIATVNGGKLALYNAKLGDPANNTIVLESDGDHPIPGTFDDPKGRGLDYAFGGLLLFSFHNFVGHKKLYREPDSDITADFPPGLGGSSAITGEGSTVQLYTGIDFTGISEIMPVNTKRNFVVAFGNEFKSVSPTGGG | > 1475 fold | >31.25
